Pooled drug test results. Numbers come from NIAID ChemDB, via PubChem.

Shared fields: tests in culture; species: HIV-1; read by: RT activity; endpoint: EC50

Blank or dashed fields: not listed here. Lines come from different laboratories, so protocols vary. ECn is the concentration giving n% inhibition of infection, replication or growth.

structure	mutations	cells	strain or isolate	conditions	value
Nc1ncnc2c1ncn2[C@@H]1O[C@H](COC2(c3ccccc3)c3ccccc3Oc3ccccc32)[C@@H](OC2(c3ccccc3)c3ccccc3Oc3ccccc32)[C@H]1OC1CCCCO1		U-937/HIV-1(IIIB) + U-937	IIIB	chronic infection	1.5 µM
C[C@]1(CO)CO[C@H](n2cnc3c(=O)[nH]c(F)nc32)C1		PBMC	LAV		2.55 µM
Nc1ccn([C@H]2S[C@@H](CO)C=C2F)c(=O)n1		PBMC	BRU		<5 µM
Nc1ccn([C@@H]2O[C@H](CO)C=C2F)c(=O)n1		PBMC	BRU		<8 µM
CC(C)c1ccccc1Sc1c(O)cc(-c2ccc(OCc3ccncc3)cc2)oc1=O		H9	IIIB		0.65 µM
Cc1ccc(C(=O)N[C@@]23CC[C@]4(C)[C@H](CC[C@@H]5[C@@]6(C)CC[C@H](OC(=O)CC(C)(C)C(=O)O)C(C)(C)[C@@H]6CC[C@]54C)C2=C(C(C)C)C(=O)C3)cc1		MT-2	IIIB	30% human serum	<0.199 µM
CC(C)[C@H](NC(=O)[C@H](C)C[C@H](O)[C@H](Cc1ccccc1)NC(=O)[C@H](C)NC(=O)OCc1ccccc1)C(N)=O		MOLT-4	IIIB		>100 µM
CC(=O)N1CCC(C(=O)N[C@@]23CC[C@]4(C)[C@H](CC[C@@H]5[C@@]6(C)CC[C@H](OC(=O)CC(C)(C)C(=O)O)C(C)(C)[C@@H]6CC[C@]54C)C2=C(C(C)C)C(=O)C3)CC1		MT-2	IIIB	30% human serum	<0.199 µM
COC(=O)[C@H](Cc1ccccc1)NP(=O)(OC)OC[C@H]1O[C@@H](n2cc(C)c(=O)[nH]c2=O)C[C@@H]1N=[N+]=[N-]		PBMC	LAV		0.09 µM
C[C@@H]1CCO[C@H]2Cn3cc(C(=O)NCc4ccc(F)cc4F)c(=O)c(O)c3C(=O)N12	R263K	CBMC	NL4-3		0.0021 µM
Cc1cn([C@H]2C[C@H](N=[N+]=[N-])[C@@H](CO)O2)c(=O)[nH]c1=O		MT-4	NL4-3	6 d	<1 µM
CC(C)[C@H](NC(=O)[C@@H](NC(=O)[C@H](C)C[C@H](O)[C@H](Cc1ccccc1)NC(=O)[C@H](C)NC(=O)OCc1ccccc1)C(C)C)C(=O)O		MOLT-4	IIIB		0.88 µM
CC(C)C1=C2[C@H]3CC[C@@H]4[C@@]5(C)CC[C@H](OC(=O)CC(C)(C)C(=O)O)C(C)(C)[C@@H]5CC[C@@]4(C)[C@]3(C)CC[C@@]2(NC(=O)c2cccc(F)c2)CC1=O		MT-2	IIIB	30% human serum	<0.199 µM
CC1(C)[C@@H](O[C@H]2O[C@H](C(=O)O)[C@@H](O)[C@H](O)[C@H]2O[C@@H]2O[C@H](C(=O)O)[C@@H](O)[C@H](O)[C@H]2O)CC[C@]2(C)[C@H]3C(=O)C=C4[C@@H]5C[C@@](C)(C(=O)O)CC[C@]5(C)CC[C@@]4(C)[C@]3(C)CC[C@@H]12		MOLT-4	IIIB	3 d	>1200 µM
Cc1ncccc1C(=O)N[C@@]12CC[C@]3(C)C(CC[C@@H]4[C@@]5(C)CC[C@H](OC(=O)CC(C)(C)C(=O)O)C(C)(C)[C@@H]5CC[C@]43C)C1=C(C(C)C)C(=O)C2		MT-2	IIIB	30% human serum	<0.199 µM
COC(=O)[C@H](Cc1c[nH]c2ccccc12)NP(=O)(OCCC#N)OC[C@H]1O[C@@H](n2cc(C)c(=O)[nH]c2=O)C[C@@H]1N=[N+]=[N-]		PBMC	LAV		0.4 µM
Nc1nc2c(ncn2[C@H]2CC[C@@H](CO)O2)c(=O)o1		H9	IIIB		>30 µg/mL
CCCc1cc(=O)oc2c3c(c4c(c12)OC(C)(C)CC4)O[C@@H](C)[C@H](C)[C@@H]3O		PBMC	CLADE F		0.1 µM
CC(=O)N[C@H]1CSSC[C@@H](C(=O)N[C@@H](CCC(N)=O)C(=O)O)NC(=O)[C@H](Cc2cnc[nH]2)NC(=O)[C@H](Cc2ccc(O)cc2)NC1=O		MT-4	NL4-3	6 d	<2.5 µM
Nc1nc2c(ncn2[C@@H]2O[C@H](CO)[C@@H](O)[C@H]2O)c(=O)o1		U-937/HIV-1(IIIB) + U-937	IIIB		27 µg/mL
CC(C)C1=C2[C@H]3CC[C@@H]4[C@@]5(C)CC[C@H](OC(=O)CC(C)(C)C(=O)O)C(C)(C)[C@@H]5CC[C@@]4(C)[C@]3(C)CC[C@@]2(NC(=O)c2cccnc2)CC1=O		MT-2	IIIB	30% human serum	<0.199 µM
CCCN(CCC)C(=O)OCC1CN(C(=O)c2cc(OC)c(OC)c(OC)c2)CCN1C(=O)c1cc(OC)c(OC)c(OC)c1		MDM	BaL		<100 µM
CC(C)C1=C2[C@H]3CC[C@@H]4[C@@]5(C)CC[C@H](OC(=O)CC(C)(C)C(=O)O)C(C)(C)[C@@H]5CC[C@@]4(C)[C@]3(C)CC[C@@]2(NC(=O)NC[C@@H]2CCCN2)CC1=O		MT-2	IIIB	30% human serum	<0.199 µM
COC(=O)[C@H](Cc1ccccc1)NP(=O)(O)OC[C@H]1O[C@@H](n2cc(C)c(=O)[nH]c2=O)C[C@@H]1N=[N+]=[N-]		PBMC	LAV		0.6 µM
Cc1nnc(CNC(=O)N[C@@]23CC[C@]4(C)C(CCC5[C@@]6(C)CC[C@H](OC(=O)CC(C)(C)C(=O)O)C(C)(C)C6CC[C@]54C)C2=C(C(C)C)C(=O)C3)o1		MT-2	IIIB	30% human serum	<0.199 µM
COC(=O)[C@@H](NC(=O)[C@@H](NC(=O)CC[C@H](O)[C@H](Cc1ccccc1)NC(=O)[C@H](C)NC(=O)[C@H](C)NC(=O)OCc1ccccc1)C(C)C)C(C)C		MOLT-4	IIIB		2.3 µM

Repeating the first 3 entries:

{"structure": "Nc1ncnc2c1ncn2[C@@H]1O[C@H](COC2(c3ccccc3)c3ccccc3Oc3ccccc32)[C@@H](OC2(c3ccccc3)c3ccccc3Oc3ccccc32)[C@H]1OC1CCCCO1", "cells": "U-937/HIV-1(IIIB) + U-937", "strain or isolate": "IIIB", "conditions": "chronic infection", "value": "1.5 µM"}
{"structure": "C[C@]1(CO)CO[C@H](n2cnc3c(=O)[nH]c(F)nc32)C1", "cells": "PBMC", "strain or isolate": "LAV", "value": "2.55 µM"}
{"structure": "Nc1ccn([C@H]2S[C@@H](CO)C=C2F)c(=O)n1", "cells": "PBMC", "strain or isolate": "BRU", "value": "<5 µM"}